Measurements taken from patent US7601526B2 (priority 2004, dated 2009).

What was measured:
[1] = tested on: F. tularensis strain 17135; assay: standard minimum inhibitor concentration (MIC) assay, strain 17135; assay type: cell-based
[2] = tested on: F. tularensis strain 17137; assay: standard minimum inhibitor concentration (MIC) assay, strain 17137; assay type: cell-based
[3] = target: Ft FabI (Francisella tularensis subsp. tularensis, UniProt Q5NGQ3); assay: Ft FabI inhibition dose response assay (NADH consumption, absorbance at 340 nm); conditions: read-out: Ft FabI IC50; compounds titrated from 30 to 0.025 uM; 25 uM crotonyl-ACP, 50 uM NADH

CN(Cc1cc2ccccc2n1C)C(=O)/C=C/c1cnc2c(c1)CCC(=O)N2
MIC [1]: 0.5 µg/mL (≈ 1.34 µM)
MIC [2]: 2 µg/mL (≈ 5.34 µM)
IC50 [3]: 47 nM

Values after ≈ are worked out from the molar mass of the structure shown.
